Results deposited as PubChem BioAssay AID504761 (Drosophila RNAi Screening Center, 2011).
The deposit covers about 22,000 reagents; shown is an unselected part of those that have a named target and a result. In the full data, 116 (0.52%) were called active. 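Calls depend on retest data that are not deposited; infection was ranked per plate without normalising between plates; the unit of the infection score is not given.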 Raw values vary from plate to plate and are shown uncorrected. A plus sign joins genes that one reagent is predicted to hit. The record does not give: the amount of reagent, the time to read-out.

Purpose: 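Fly genes whose silencing reduces dengue virus type 2 infection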 (primary screen)
Cell system: D.Mel-2 cells from Drosophila
Reagent: long dsRNA against Drosophila genes
Challenge: infection with dengue virus type 2; dose and infection time not stated
Measured: 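Cells stained for dengue envelope protein and imaged; percent of infected cells per well on duplicate plates, ranked by infection, with stained nuclei counted for cell number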
Scale: infection score: higher = more virus-infected cells; cell count: higher = more cells in the well
Rule for the call: 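Very low infection ranking in both replicate wells (chance probability at most 0.065), then a retest showing infection dropped 1.5-fold or more at p below 0.05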
Calls: active = confirmed: knock-down lowers infection; inactive = not picked or not confirmed

"infection score, replicate 1","infection score, replicate 2","cell count, replicate 1","cell count, replicate 2",Outcome,predicted target,DRSC id
8.05,8.01,6446,6370,inactive,CG8079,DRSC07070
7.9,14.9,6720,6068,inactive,CG8079,DRSC07071
4.1,8.15,6345,5889,inactive,CG3097,DRSC18275
0.94,3.5,6288,6792,inactive,CG8245,DRSC04901
5.46,3.77,6185,5281,inactive,Ir94f,DRSC13621
1.94,1.65,6351,6130,inactive,ND-24L,DRSC10650
8.9,13,4033,6457,inactive,ND-24L,DRSC28201
1.28,2.26,6398,5674,inactive,Uhg2 + snoRNA:Me18S-G1620 + snoRNA:U14:30Ea,DRSC01100
4.27,7.78,5805,6366,inactive,boil,DRSC17872
2.34,6.32,6417,5850,inactive,cype,DRSC02356
8.02,11.3,5223,4266,inactive,SmydA-7,DRSC07340
10.1,1.74,6765,6316,inactive,CG7369,DRSC23501
2.18,9.76,6836,4376,inactive,Nil,DRSC15953
1.2,7.54,6642,6366,inactive,Nil,DRSC23322
9.3,10.3,5410,5080,inactive,Gclc,DRSC18666
3.26,3.08,5827,6389,inactive,nod,DRSC18900
2.25,0.88,6137,6454,inactive,nod,DRSC20356
1.33,0.73,5858,6132,inactive,CG43066,DRSC06927
2.22,6.54,5804,5798,inactive,CG43066,DRSC26570
1.95,4.93,6511,6719,inactive,BomS6,DRSC21676
0.33,15.3,1498,6564,inactive,BomS6,DRSC26792
9.97,13.5,5579,5609,inactive,CG10616,DRSC09750
1.08,20.1,6228,5438,inactive,CG13739,DRSC23200
12.8,,1993,316,inactive,CG13739,DRSC28741
2.07,33.9,6233,4943,inactive,CG34342,DRSC09756
0.88,18.8,6137,5530,inactive,CG34342,DRSC22515
5.31,5.27,6276,6242,inactive,CG34342,DRSC24023
12.9,12.2,5776,5853,inactive,Syb,DRSC07559
6.1,1.6,6048,6858,inactive,Syb,DRSC25904
4.92,4.16,4328,6584,inactive,tll,DRSC17085
8.29,,2377,358,inactive,tll,DRSC28584
3.06,0.72,6317,6127,inactive,m,DRSC20181
17.3,22.6,5695,6105,inactive,m,DRSC29636
3.29,26.7,6530,3731,inactive,CG14691,DRSC14914
13.9,2.11,5914,6576,inactive,CG14691,DRSC27957
6.81,17.6,6853,6430,inactive,GstT1,DRSC06243
0.46,0.19,6124,5878,inactive,Actbeta,DRSC17185
17.4,10.9,4873,5187,inactive,Actbeta,DRSC17217

Copied from the entries so far (4 entries):
"infection score, replicate 1","infection score, replicate 2","cell count, replicate 1","cell count, replicate 2",Outcome,predicted target,DRSC id
1.95,4.93,6511,6719,inactive,BomS6,DRSC21676
0.33,15.3,1498,6564,inactive,BomS6,DRSC26792
9.97,13.5,5579,5609,inactive,CG10616,DRSC09750
1.08,20.1,6228,5438,inactive,CG13739,DRSC23200

Additional entries follow:
"infection score, replicate 1","infection score, replicate 2","cell count, replicate 1","cell count, replicate 2",Outcome,predicted target,DRSC id
4.87,1.9,5755,6257,inactive,nAChRalpha6,DRSC01096
15.9,6.63,6269,6247,inactive,nAChRalpha6,DRSC02738
16.7,11.7,6255,6765,inactive,Idgf1,DRSC03349
5.23,4.25,6114,6029,inactive,Idgf1,DRSC26045
6.44,2.89,6013,6822,inactive,CG4896,DRSC00671
2.44,7.91,5610,6432,inactive,CG4896,DRSC24570
3.06,4.52,6037,6658,inactive,prom,DRSC04684
1.02,1.63,6154,7415,inactive,prom,DRSC21463
6.39,0.52,6765,6786,inactive,prom,DRSC22088
3.5,7.61,6227,6291,inactive,prom,DRSC24876
3.99,2.5,6697,3563,inactive,prom,DRSC26828
5.24,11.8,7178,6095,inactive,prom,DRSC27557
4.94,17.6,1296,3275,inactive,Coq7,DRSC29047
7.99,19.6,6208,5342,inactive,Vps35,DRSC04519
25.9,10.9,4620,3755,inactive,Vps35,DRSC28790
3.17,2.48,6471,6602,inactive,E(spl)m2-BFM,DRSC23082
8.67,6.21,5340,6404,inactive,GXIVsPLA2,DRSC10243
18.6,17.4,4029,5944,inactive,GXIVsPLA2,DRSC29361
16.9,38.2,6469,5861,inactive,CG7110,DRSC03011
1.14,3.69,6767,6796,inactive,CG7110,DRSC03012
